Data reported in publication PMC5797941.
The exact form of at least one protein or probe is not confirmed. Where a protein sequence is shown, tags need not be part of it.

Biological target: T1, His6-SlyA (UniProt P0A8W3)
T1 sequence (looked up, limits assumed): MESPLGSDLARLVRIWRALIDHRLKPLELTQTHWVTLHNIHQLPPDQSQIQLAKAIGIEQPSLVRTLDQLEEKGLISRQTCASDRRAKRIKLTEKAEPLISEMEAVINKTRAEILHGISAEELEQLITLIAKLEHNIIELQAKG
Assay: EMSA
Conditions: apparent Kd, range given for the group, 20 µl: 10 mM Tris/HCl pH 7.5, 50 mM KCl, 1 mM DTT, ~1 nM biotin-DNA, 0-500 nM SlyA, 25 °C, 30 min, recombinant protein, protein details: His6 (pLATE-51, pGS2469), probe letters rebuilt from the primers and the genome

Sequence	binding result (label: 5' biotin (TC51 strand))	binding result (label: 5' biotin (TC57 strand))
TGGTGAATATTATTGATCAATTAATGTTAAGAATTAATGCATTAAATATATAAATTAATTATTAAATAAGCACATTTAATCCATTTTGTAGATGATTGAGTATTCGCGGTAGTTATGATTAGATTGTTTTCGCAACAAAAACATTATGGATTATTATGCTGTGGTAAATGACTCATTCCACGGCAATGGATTCTGTTTTTATCAGAACCCGTATCTTTATGTTTTCCGAATTTTACTCATTTTGCTTTTTCTTATTTTATATGCATGATAAATCATATTCTTCAGGATTATTTCTCTGCATTCCAATAAGGGAAAGGGAGTTAAGTGTGACAGTGGAGTTAAGT (double strand) [leuO-leuL intergenic region]	binds	–
AACAAACAACTCCTTGTCCGGAGAACCCCAACGGGGAAAACGAAATTCAATACCGTCGGTAATGACGAAAGGCAGGTGAGAAGGGCAACGAGACTGCAAATGTACTGAATTTCATGTAATCAACCACACTGCCTGTGAACACACAGACAGAGAAATACTTTCTGACTTCGGGTCAGAATGTATAACGATTACAAATAGTCATCAGCACATTACACCTCTTGAATTGATGGGTTGCATAGAAAATATACACCTTAAGTGTAATTAAAATTTGCGGTTAATCAAAAGAGCGCGGTGGAAAGGGGAATATCTGCCGGGTACAGGACATGTAAAACGCGAGCTTGTTTCCGGAAAAATGTATCGTTTGCAGAAGAATAAAAATAGCCTGGAAAGCGCCTCGGGG (double strand) [mdtM upstream region]	–	binds
